A mixed list of measured activities; the numbers were collected in NIAID ChemDB.

All rows: whole-cell or culture tests; organism: Mycobacterium kansasii

Neighbouring rows are from separate reports.

structure	strain or isolate	method	setting	endpoint	tested at	value
CCCNC(=O)Nc1ccc(S(=O)(=O)Nc2cc(C)on2)cc1	6509/96 clinical isolate	broth dilution / absorbance	14 d	MIC100	-	500 µM
CC[C@@H](CO)NCCN[C@@H](CC)CO	262	agar diffusion	-	zone	100 µg/disc	>55 mm
CCNC(=O)Nc1ccc(S(=O)(=O)Nc2cc(C)on2)cc1	235/80	broth dilution / absorbance	21 d	MIC100	-	250 µM
CCCN(CCC)C(=O)c1cc(C)cc(C(=O)N[C@@H](Cc2cc(F)cc(F)c2)[C@H](O)CNCc2cccc(I)c2)c1	262	agar diffusion	-	zone	100 µg/disc	14 mm
CCCCCCNC(=O)Nc1ccc(S(=O)(=O)Nc2cc(C)on2)cc1	6509/96 clinical isolate	broth dilution / absorbance	21 d	MIC100	-	250 µM
O=C(Nc1ccc(C(F)(F)F)cc1)c1cc(Br)ccc1OP(=O)(Oc1ccccc1)Oc1ccccc1	My 235/80	-	21 d	MIC	-	8 µM
NNC(=O)c1ccncc1	104 clinical isolates	-	-	MIC90	-	4 µg/mL
O=C(Nc1ccc(Cl)cc1)c1cc(Cl)ccc1OP(=O)(Oc1ccccc1)Oc1ccccc1	My 235/80	-	14 d	MIC	-	8 µM
NNC(=O)c1ccncc1	235/80	broth dilution / absorbance	21 d	MIC100	-	>250 µM
O=C(Nc1ccc(C(F)(F)F)cc1)c1cc(Cl)ccc1OP(=O)(Oc1ccccc1)Oc1ccccc1	My 6509/96	-	21 d	MIC	-	4 µM
CCCCNC(=O)Nc1ccc(S(=O)(=O)Nc2cc(C)on2)cc1	235/80	broth dilution / absorbance	7 d	MIC100	-	125 µM
O=C(Nc1ccc(C(F)(F)F)cc1)c1cc(Br)ccc1OP(=O)(OCc1ccccc1)OCc1ccccc1	My 6509/96	-	21 d	MIC	-	16 µM
CC(C)=CCC/C(C)=C/CNCCNC1C2CC3CC(C2)CC1C3	262	agar diffusion	-	zone	100 µg/disc	54 mm
O=C(Nc1ccc(Cl)c(Cl)c1)c1cc(Cl)ccc1OP(=O)(Oc1ccccc1)Oc1ccccc1	My 235/80	-	14 d	MIC	-	8 µM
O=C(N[C@H]([C@H](O)CNCc1cccc(I)c1)C(F)(F)c1ccccc1)OCc1ccccc1	P	broth dilution	-	MIC	-	16 µg/mL

2 of the rows above, restated:

structure | strain or isolate | method | setting | endpoint | tested at | value
CCNC(=O)Nc1ccc(S(=O)(=O)Nc2cc(C)on2)cc1 | 235/80 | broth dilution / absorbance | 21 d | MIC100 | - | 250 µM
CCCCCCNC(=O)Nc1ccc(S(=O)(=O)Nc2cc(C)on2)cc1 | 6509/96 clinical isolate | broth dilution / absorbance | 21 d | MIC100 | - | 250 µM

Zone: diameter of growth inhibition. MIC50, MIC90 and the like: level of inhibition, or share of isolates inhibited. An empty or dashed field is not shown.